Measured values from several laboratories, pooled; numbers as filed in NIAID ChemDB.

Shared fields: tests in culture; organism: Hepatitis C virus; cells: Huh7; measure: EC50

a–b is a range or a potency band. Blank or dashed fields: not listed here. ECn: concentration that inhibits the pathogen or its effect by n%. Lines come from different laboratories, so protocols vary.

compound | strain or isolate | method | value
CCCCOC(=O)/C=C/c1ccc(O)c(O)c1 | 2a | luciferase | 13.5 µM
CCC(=O)N1c2ccccc2NC2=C(C(=O)CC(c3ccc(OC)c(OC)c3)C2)C1c1ccccc1OC(C)CC | - | replicon | 4.78 µM
CNC(=O)c1cnccc1Nc1nc(-c2cc(Cl)ccc2F)nc2nc(NCCN(C)C)ccc12 | - | replicon | >10 µM
CO[C@@H]1[C@H](O)[C@@H](CO)O[C@H]1n1cc(C#CC2=CCCCC2)c(=O)[nH]c1=O | - | replicon | >300 µM
CS(=O)(=O)Nc1ccc2c(c1)S(=O)(=O)N=C(c1c(O)c3ccccc3n(NC3CCC3)c1=O)N2 | 1a | replicon | 0.003 µM
CCCCCc1ccc(C#Cc2cn([C@@H]3O[C@H](CO)[C@@H](O)[C@H]3OC)c(=O)[nH]c2=O)cc1 | - | replicon | >300 µM
Fc1ccc(Br)cc1-c1nc(Nc2ccncc2)c2cccnc2n1 | - | replicon | 0.23 µM
C[C@@]1(O)[C@H](O)[C@@H](CO)O[C@H]1n1cnc2c(NO)ncnc21 | - | replicon | <25 µM
CNC(=O)c1c(-c2ccccc2)oc2cc(C)c(OC)cc12 | - | replicon | <1 µM
CCN(C(=O)c1ccc(C)cc1)c1cc(-c2ccccc2)sc1C(=O)O | - | replicon | 10 µM
CNC(=O)c1c(-c2ccc(F)cc2)oc2cc(-c3cnc[nH]3)c(OC)cc12 | - | replicon | <10 µM
CC1=C(C(=O)OCCc2cccc(Cl)c2)C(COC(=O)CCN(C)C)NC(=S)N1 | - | ELISA | <1 µM
COC(=O)/C=C/c1cn([C@@H]2O[C@H](CO)[C@@H](O)[C@H]2OC)c(=O)[nH]c1=O | - | replicon | >300 µM
CN(C)Nc1ncnc2c1ncn2[C@@H]1O[C@H](CO)[C@@H](O)[C@@]1(C)O | - | replicon | 5 µM
CO[C@@H]1[C@H](O)[C@@H](CO)O[C@H]1n1cc(/C=C/c2ccccc2)c(=O)[nH]c1=O | - | replicon | >300 µM
CNC(=O)c1cnccc1Nc1nc(-c2cc(Cl)ccc2F)nc2ncccc12 | - | replicon | 12 µM
CCC[C@H](NC(=O)[C@@H]1C2CCCC2CN1C(=O)[C@@H](NC(=O)[C@@H](NC(=O)c1cnccn1)C(C)C)C(C)(C)C)C(=O)C(=O)NC(C)CC | - | - | 3.48 µM
CONc1ncnc2c1ncn2[C@@H]1O[C@H](CO)[C@@H](O)[C@@]1(C)O | - | replicon | 40 µM
CN(N)c1ncnc2c1ncn2[C@@H]1O[C@H](CO)[C@@H](O)[C@@]1(C)O | - | replicon | <25 µM
CCCCCCCCCCOC(=O)/C=C/c1ccc(O)c(O)c1 | 2a | luciferase | 5.9 µM
O=C(Cc1ccc(C(F)(F)F)cc1)N/N=C/c1ccccc1OS(=O)(=O)c1ccc(C(F)(F)F)cc1 | - | replicon | <5 µM
CCCOc1cc2c(C(=O)NC)c(-c3ccc(F)cc3)oc2cc1NS(C)(=O)=O | - | replicon | <1 µM
CON(C)c1ncnc2c1ncn2[C@@H]1O[C@H](CO)[C@@H](O)[C@@]1(C)O | - | replicon | 3.7 µM
CC1(C)CC(=O)C2=C(C1)Nc1ccc(C(=O)c3ccccc3)cc1NC2c1ccc(F)cc1 | - | replicon | 24.5 µM
C=C1C(=O)O[C@@H]2[C@H]1CC[C@H](COC(=O)CC)[C@]1(O)CCC(=O)[C@@]21C | - | replicon | <2 µM
C[C@@]1(O)[C@H](O)[C@@H](CO)O[C@H]1n1cnc2c(NNS(C)(=O)=O)ncnc21 | - | replicon | <25 µM
CNC(=O)c1c(-c2ccc(F)cc2)oc2cc(N(C)S(C)(=O)=O)c(OCc3ccc(C(=O)O)cc3)cc12 | - | replicon | <10 µM
CC(C)(C)OC(=O)NOc1ncnc2c1ncn2[C@@H]1O[C@H](CO)[C@@H](O)[C@@]1(C)O | - | replicon | <25 µM
Nc1ncnc2c1ncn2[C@@H]1C[C@H](CO)[C@@H](O)[C@]1(O)CO | - | - | 18.2 µg/mL
CCC(=O)N1c2ccccc2NC2=C(C(=O)CC(C)(C)C2)C1c1cc(Cl)cc(Cl)c1OC | - | replicon | 17.83 µM
COc1ccc(CC(=O)N/N=C/c2ccccc2OS(=O)(=O)c2ccc(C(F)(F)F)cc2)c(OC)c1OC | - | replicon | <5 µM
COC(=O)OC(C1COC(=O)O1)C1NC(=S)NC(C)=C1C(=O)OCCc1cccc(Cl)c1 | - | ELISA | <1 µM
CN(N)c1nc(N)nc2c1ncn2[C@@H]1O[C@H](COP(=O)(OCCSC(=O)C(C)(C)C)OCCC(=O)C(C)(C)C)[C@@H](O)[C@@]1(C)O | - | replicon | 0.0069 µM
O=C(Cc1cc(F)cc(C(F)(F)F)c1)N/N=C/c1ccccc1OS(=O)(=O)c1ccc(C(F)(F)F)cc1 | - | replicon | <5 µM
CNC(=O)c1c(-c2ccc(F)cc2)oc2cc(NC(C)=O)c(OC)cc12 | - | replicon | <1 µM
Brc1cccc(-c2nc(Nc3ccncc3)c3cccnc3n2)c1 | - | replicon | 0.57 µM
Nc1c(C(=O)N2CCn3c(nnc3C(F)(F)F)C2)sc2nc(-c3ccccc3)cc(C(F)(F)F)c12 | - | luciferase / replicon | 3.3 µM
CC(CNc1ncnc2c1ncn2[C@@H]1O[C@H](CO)[C@@H](O)[C@@]1(C)O)c1ccccc1 | - | replicon | >100 µM
CNC(=O)c1c(-c2ccc(F)cc2)oc2cc(-c3noc(C)n3)c(OC)cc12 | - | replicon | <1 µM
COc1ccc2[nH]cc(CC(=O)N/N=C/c3ccccc3OS(=O)(=O)c3ccc(C(F)(F)F)cc3)c2c1 | - | replicon | 5–50 µM
C=C1C(=O)O[C@@H]2[C@H]1CC[C@H](COC(=O)C=C(C)C)[C@]1(O)CCC(=O)[C@@]21C | - | replicon | <2 µM
CN(N)c1ncnc2c1ncn2[C@@H]1O[C@H](CO)[C@@H](O)[C@@]1(C)O | - | replicon | 15 µM
O=C1C[C@H](c2ccccc2OCc2ccccc2)CC2=C1[C@H](c1cccc(OC(=O)c3ccc(Cl)cc3)c1)Nc1ccccc1N2 | - | replicon | 3.672 µM
O=C(Cc1cccc(OC(F)(F)F)c1)N/N=C/c1ccccc1OS(=O)(=O)c1ccc(C(F)(F)F)cc1 | - | replicon | <5 µM
CNC(=O)c1c(-c2ccc(F)cc2)oc2cc(N(CCOC)S(C)(=O)=O)c(OC)cc12 | - | replicon | <1 µM
CO[C@@H]1[C@H](O)[C@@H](CO)O[C@H]1n1cc(C#Cc2ccc(F)cc2)c(=O)[nH]c1=O | - | replicon | >300 µM
CNC(=O)c1c(-c2ccc(F)cc2)oc2cc(-c3cc(COC)on3)c(OC)cc12 | - | replicon | <1 µM
CCC(C)Oc1ccccc1C1C2=C(CC(c3ccc(OC)c(OC)c3)CC2=O)Nc2ccccc2N1C(C)=O | - | replicon | 0.599 µM
CC1=C(C(=O)OCCSc2nc3ccccc3s2)CNC(=S)N1 | - | ELISA | 1–10 µM
CCCOc1cc2c(C(=O)NC)c(-c3ccc(F)cc3)oc2cc1N(C)S(C)(=O)=O | - | replicon | <1 µM

The last 7 rows once more:

compound,strain or isolate,method,value
O=C(Cc1cccc(OC(F)(F)F)c1)N/N=C/c1ccccc1OS(=O)(=O)c1ccc(C(F)(F)F)cc1,-,replicon,<5 µM
CNC(=O)c1c(-c2ccc(F)cc2)oc2cc(N(CCOC)S(C)(=O)=O)c(OC)cc12,-,replicon,<1 µM
CO[C@@H]1[C@H](O)[C@@H](CO)O[C@H]1n1cc(C#Cc2ccc(F)cc2)c(=O)[nH]c1=O,-,replicon,>300 µM
CNC(=O)c1c(-c2ccc(F)cc2)oc2cc(-c3cc(COC)on3)c(OC)cc12,-,replicon,<1 µM
CCC(C)Oc1ccccc1C1C2=C(CC(c3ccc(OC)c(OC)c3)CC2=O)Nc2ccccc2N1C(C)=O,-,replicon,0.599 µM
CC1=C(C(=O)OCCSc2nc3ccccc3s2)CNC(=S)N1,-,ELISA,1–10 µM
CCCOc1cc2c(C(=O)NC)c(-c3ccc(F)cc3)oc2cc1N(C)S(C)(=O)=O,-,replicon,<1 µM